For at least one entry, the source does not settle the construct or the ends of the probe.
Target: SARS-CoV-2 nucleocapsid (N) protein, full-length (SARS-CoV-2) (UniProt P0DTC9)
Test: EMSA
Conditions: N protein alone, 5 nM RNA; recombinant protein; residues 1-419; label: 5'-biotin

Question: Which Kd does the source give for AAGUUCGUUU [TRS RNA] here?
Answer: 1280 nM

— publication PMC8113585
